{"source": "patent US10307403B2", "about": "“Polymorphic forms and process” (GALECTO BIOTECH AB, priority 2015, dated 2019)", "experiment": "Microbial limits within ICH stability study", "data": [{"smiles": "OC[C@H]1O[C@@H](S[C@@H]2O[C@H](CO)[C@H](O)[C@H](n3cc(-c4cccc(F)c4)nn3)[C@H]2O)[C@H](O)[C@@H](n2cc(-c3cccc(F)c3)nn2)[C@H]1O", "note": "[Form 1, 3,3′-Dideoxy-3,3′-bis-[4-(3-fluorophenyl)-1H-1,2,3-triazol-1-yl]-1,1′-sulfanediyl-di-β-D-galactopyranoside]", "values": [{"measurement": "Microbial Limits Bile-tolerant gram-negative bacteria", "setting": "6 Months @ 40° C./75 RH", "value": "absent/g"}, {"measurement": "Microbial Limits TAMC", "setting": "6 Months @ 40° C./75 RH", "value": "<10", "unit": "cfu/g"}, {"measurement": "Microbial Limits TYMC", "setting": "6 Months @ 40° C./75 RH", "value": "<10", "unit": "cfu/g"}, {"measurement": "Microbial Limits Bile-tolerant gram-negative bacteria", "setting": "12 Months 25° C./60 RH", "value": "absent/g"}, {"measurement": "Microbial Limits TAMC", "setting": "12 Months 25° C./60 RH", "value": "<10", "unit": "cfu/g"}, {"measurement": "Microbial Limits TYMC", "setting": "12 Months 25° C./60 RH", "value": "<10", "unit": "cfu/g"}, {"measurement": "Microbial Limits TYMC", "setting": "Initial, criterion NMT 10 cfu/g", "value": "<10", "unit": "cfu/g"}, {"measurement": "Microbial Limits TAMC", "setting": "Initial, criterion NMT 100 cfu/g", "value": "<10", "unit": "cfu/g"}, {"measurement": "Microbial Limits Bile-tolerant gram-negative bacteria", "setting": "Initial, criterion absent in 1 g", "value": "absent/g"}]}]}
